Data source: PubChem BioAssay AID1259414 (Drosophila RNAi Screening Center, 2018)
The screen tested about 24,000 reagents; shown is a random part of those with a known target gene and a result. Over the whole deposit, about 1,210 (5%) are marked active. 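Inactive calls also include excluded dsRNAs with several or no targets, genes unexpressed in JW18, and well A1, regardless of score.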 A plus sign joins genes that one reagent is predicted to hit.

- Assay: 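Host factors increasing or decreasing Wolbachia levels in cultured fly cells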 (primary screen)
- System: Drosophila JW18 cells infected with Wolbachia
- Reagents: long dsRNA against Drosophila genes, 0.25 µg dsRNA per well of a 384-well plate
- Timing: 5 days
- Treatment: cells persistently infected with Wolbachia before knock-down; no added drug
- Detection: 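Automated imaging of bacterial rRNA staining divided by host cell count, reported as plate-normalised robust z-score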
- Scale: Wolbachia per cell robust z: higher = more Wolbachia per host cell than the plate typical
- Call rule: 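Active if absolute robust z reaches 1.5 in two or more of three replicates, leaving out multi- or no-target dsRNAs, genes unexpressed in JW18 and A1 wells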

For Roc1b + Cdc5 [DRSC26879], the entry reads Wolbachia per cell robust z, rep 1 = -1.43; Wolbachia per cell robust z, rep 2 = -1.05; Wolbachia per cell robust z, rep 3 = -2.33; inactive.
After knock-down of Ama [DRSC12489], the record shows Wolbachia per cell robust z, rep 1 = 0.931; Wolbachia per cell robust z, rep 2 = 0.0369; Wolbachia per cell robust z, rep 3 = 0.131; inactive.
For spz6 [DRSC04533] the deposit lists Wolbachia per cell robust z, rep 1 = 0.596; Wolbachia per cell robust z, rep 2 = -1.88; Wolbachia per cell robust z, rep 3 = -0.8; inactive.
After knock-down of gammaTub37C [DRSC03535], the screen gave Wolbachia per cell robust z, rep 1 = 1.25; Wolbachia per cell robust z, rep 2 = 0.929; Wolbachia per cell robust z, rep 3 = 0.762; inactive.
For gammaTub37C [DRSC25835] the deposit lists Wolbachia per cell robust z, rep 1 = -1.34; Wolbachia per cell robust z, rep 2 = -1.98; Wolbachia per cell robust z, rep 3 = 0.293; inactive.
Knock-down of gammaTub37C [DRSC40749] came out at: Wolbachia per cell robust z, rep 1 = 0.352; Wolbachia per cell robust z, rep 2 = 0.828; Wolbachia per cell robust z, rep 3 = 0.593; inactive.
With knock-down of hiro [DRSC08564] the results were Wolbachia per cell robust z, rep 1 = 0.705; Wolbachia per cell robust z, rep 2 = 0.481; Wolbachia per cell robust z, rep 3 = 0.657; inactive.
hiro [DRSC29780] gave Wolbachia per cell robust z, rep 1 = -0.668; Wolbachia per cell robust z, rep 2 = -0.549; Wolbachia per cell robust z, rep 3 = -0.394; inactive.
Silencing of REG [DRSC20273] resulted in: Wolbachia per cell robust z, rep 1 = -0.352; Wolbachia per cell robust z, rep 2 = -0.639; Wolbachia per cell robust z, rep 3 = -0.456; inactive.
Depletion of CG10116 [DRSC09700] came out at: Wolbachia per cell robust z, rep 1 = 0.108; Wolbachia per cell robust z, rep 2 = -1.47; Wolbachia per cell robust z, rep 3 = 0.446; inactive.
For Upf3 [DRSC04092], the entry reads Wolbachia per cell robust z, rep 1 = 0.681; Wolbachia per cell robust z, rep 2 = -1.92; Wolbachia per cell robust z, rep 3 = -0.319; inactive.
Upf3 [DRSC27316] gave Wolbachia per cell robust z, rep 1 = 0.973; Wolbachia per cell robust z, rep 2 = -4.34; Wolbachia per cell robust z, rep 3 = 0.83; inactive.
